The target of the test is AhlC head mutant (triple L156T, L160T, L161T) (Aeromonas hydrophila strain AL09-71). Kind of test: crystal structure; AhlC head mutant, 0.1 M imidazole pH 8, 10% PEG 8000, P6(1)22, 1.92 A; tetramer assembled by crystal symmetry.

As a reminder, the stoichiometry N is a count of units in the complex or per binding partner.

“AhlC head mutant (triple L156T, L160T, L161T) (natural protein)” returned a stoichiometry N of 4.

The values are drawn from PMC6602965.
